Anti-infective test results gathered from many reports (values: NIAID ChemDB through PubChem).

All rows: growth or infection tests; agent: Herpes simplex virus 1; endpoint: EC90

Conditions beyond the fields shown may differ between rows.

SMILES	strain	cells	read by	value
OC[C@H]1O[C@@H](c2cc(Cl)nc3cc(Cl)c(Cl)cc23)C(O)C1O	-	HFF	virus yield	31 µM
Cc1c(NC(=O)C2CCCC2)ccc2nc(NC(C)(C)C(=O)N(C)CCc3ccccn3)oc(=O)c12	-	VERO	plaque count	>12.5 µM
Cc1nc(N(C)C(=O)Cc2ccc(-c3ccccn3)cc2)sc1S(N)(=O)=O	1 (KOS)	HEF	plaque count	0.082 µM
CC(=O)OC[C@H]1O[C@@H]2Oc3c(c(=O)n(C)c(=O)n3C)S[C@@H]2[C@@H](OC(C)=O)[C@H]1OC(C)=O	-	VERO	-	>100 µM
CCCCCCCCCCCCCCCCOCCCOP(=O)(O)CO[C@H](CO)Cn1cnc2c(N)ncnc21	-	MRC-5	hybridisation	0.0004 µM
Cc1c(NC(=O)C(C)C)ccc2nc(NC(C)(C)C(=O)N(C)CCc3ccccn3)oc(=O)c12	-	VERO	plaque count	12.5 µM
Nc1ccn([C@@H]2O[C@H](CO)C[C@H]2O)c(=O)n1	-	HeLa	virus yield	>250 µM
Cc1c(NC(=O)OC(C)(C)C)ccc2nc(N3CCC[C@H]3C(=O)NCc3ccccn3)oc(=O)c12	-	VERO	plaque count	>12.5 µM
Cn1cc(C(=O)NCc2ccc(Cl)cc2)c(=O)c2cc(CN3CCOCC3)ccc21	KOS	VERO	plaque count	8.5 µM
Cn1c2c(c(=O)n(C)c1=O)S[C@H]1[C@@H](O2)O[C@H](COc2ccccc2)[C@@H](OCc2ccccc2)[C@@H]1OCc1ccccc1	-	VERO	-	>100 µM
Nc1ncnc2c1c(Cl)cn2COC(CO)CO	-	HFF	virus yield	17 µM
CC(=O)O[C@@H]1[C@@H](OC(C)=O)[C@H](C)O[C@@H]2Oc3c(c(=O)n(C)c(=O)n3C)S[C@@H]21	-	VERO	-	>100 µM
Cc1c(NC(=O)OC(C)(C)C)ccc2nc(NCC(=O)N(C)CCc3ccccn3)oc(=O)c12	-	VERO	plaque count	>20 µM
Nc1nc(=O)n([C@H]2C[C@H](O)[C@@H](CO)O2)cc1F	-	HeLa	virus yield	50 µM
Cc1c(NC(=O)OC(C)(C)C)ccc2nc(N3CCC[C@H]3C(=O)N(C)CCc3cccnc3)oc(=O)c12	-	VERO	plaque count	>12.5 µM
OCC(CO)OCn1cc(Br)c2c(NO)ncnc21	-	HFF	virus yield	>100 µM

The last 2 rows once more:

| SMILES | strain | cells | read by | value |
|---|---|---|---|---|
| Cc1c(NC(=O)OC(C)(C)C)ccc2nc(N3CCC[C@H]3C(=O)N(C)CCc3cccnc3)oc(=O)c12 | - | VERO | plaque count | >12.5 µM |
| OCC(CO)OCn1cc(Br)c2c(NO)ncnc21 | - | HFF | virus yield | >100 µM |

ECn is the concentration giving n% inhibition of infection, replication or growth. An empty or dashed field is not shown.